PubChem BioAssay AID624099 – ICCB-Longwood – 2012

Assay: 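Host factors E2 relies on to silence an HPV18 LCR reporter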 (primary screen)
Cells: human C33A cervical carcinoma cells (HPV-negative) stably expressing BPV1 E2 and an HPV18 LCR luciferase reporter
Knock-down reagent: siRNA pool against human genes, 40 nM
Time to read-out: 72 h
Measured: 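Per-well luciferase luminescence, z-scored on each plate against the plate mean and SD with control wells left out, then averaged across three replicate plates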
Reading the numbers: mean z-score and z-score: higher = stronger reporter signal, weaker E2 silencing
Rule for the call: 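Hit if mean z-score reaches 2 and two or more of three replicate z-scores also reach 2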
The whole screen tested about 21,000 reagents; shown is a random part of them. 497 of them (2.4%) were called active. 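Higher z means weaker E2 silencing; only reporter increases were scored, and knock-downs that hurt cell survival may mask genuine repressor factors.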 Reagents against one gene are numbered here. Reagent sequences are not shown.

For EIF5 (GeneID 1983), what does the deposit list?
mean z-score: 0.24; z-score, replicate A: 0.15; z-score, replicate B: 0.25; z-score, replicate C: 0.3; activity call: inactive

How did the screen score USP7P1 (GeneID 345576)?
mean z-score: 1.07; z-score, replicate A: 1.25; z-score, replicate B: 1.01; z-score, replicate C: 0.94; activity call: inactive

Which result is listed for SEMA3C (GeneID 10512)?
mean z-score: -0.6; z-score, replicate A: -0.63; z-score, replicate B: -0.43; z-score, replicate C: -0.75; activity call: inactive

Which result is listed for SLC25A25-AS1 (GeneID 100289019)?
mean z-score: -0.14; z-score, replicate A: -0.74; z-score, replicate B: 0.12; z-score, replicate C: 0.19; activity call: inactive

For ACTBL2 (GeneID 345651), what was measured?
mean z-score: 0.19; z-score, replicate A: 0.54; z-score, replicate B: 0.16; z-score, replicate C: -0.12; activity call: inactive

How did the screen score TICRR (GeneID 90381)?
mean z-score: 0.34; z-score, replicate A: 0.21; z-score, replicate B: 0.43; z-score, replicate C: 0.37; activity call: inactive

How did the screen score ECD (GeneID 11319)?
mean z-score: -0.3; z-score, replicate A: -0.28; z-score, replicate B: -0.35; z-score, replicate C: -0.28; activity call: inactive

Which result is listed for LINC03124 (GeneID 29798)?
mean z-score: -0.67; z-score, replicate A: -0.64; z-score, replicate B: -0.78; z-score, replicate C: -0.6; activity call: inactive

What did the screen give for GSC (GeneID 145258)?
mean z-score: 0.64; z-score, replicate A: 0.75; z-score, replicate B: 0.51; z-score, replicate C: 0.68; activity call: inactive

With ESPNP (GeneID 284729), what does the deposit list?
mean z-score: 0.13; z-score, replicate A: 0.01; z-score, replicate B: 0.22; z-score, replicate C: 0.17; activity call: inactive

An excerpt from above, showing only “z-score, replicate C”.
SEMA3C (GeneID 10512)	-0.75
SLC25A25-AS1 (GeneID 100289019)	0.19
ACTBL2 (GeneID 345651)	-0.12

Additional entries follow:
Which result is listed for GIMAP7 (GeneID 168537)?
mean z-score: 0.29; z-score, replicate A: 0.28; z-score, replicate B: 0.4; z-score, replicate C: 0.18; activity call: inactive

For SMIM10L2A (GeneID 399668), how do the results read?
mean z-score: -0.24; z-score, replicate A: -0.38; z-score, replicate B: -0.13; z-score, replicate C: -0.23; activity call: inactive

What did the screen give for RAB33A (GeneID 9363)?
mean z-score: 0.83; z-score, replicate A: 1.06; z-score, replicate B: 0.63; z-score, replicate C: 0.79; activity call: inactive

What is on record for CD1D (GeneID 912)?
mean z-score: -0.21; z-score, replicate A: -0.29; z-score, replicate B: -0.07; z-score, replicate C: -0.27; activity call: inactive

For RPS13 (GeneID 6207), how do the results read?
mean z-score: -1.76; z-score, replicate A: -1.84; z-score, replicate B: -1.73; z-score, replicate C: -1.72; activity call: inactive

With SPATA24 (GeneID 202051), how do the results read?
mean z-score: -1.09; z-score, replicate A: -1.05; z-score, replicate B: -1.02; z-score, replicate C: -1.18; activity call: inactive

Which result is listed for SLC38A5 (GeneID 92745)?
mean z-score: -1.34; z-score, replicate A: -0.95; z-score, replicate B: -2.12; z-score, replicate C: -0.94; activity call: inactive

How did the screen score G6PC2 (GeneID 57818)?
mean z-score: -0.08; z-score, replicate A: 0.23; z-score, replicate B: -0.28; z-score, replicate C: -0.19; activity call: inactive

What did the screen give for IQCF2 (GeneID 389123)?
mean z-score: -0.92; z-score, replicate A: -0.64; z-score, replicate B: -1.26; z-score, replicate C: -0.86; activity call: inactive

What is on record for IL13RA2 (GeneID 3598)?
mean z-score: -1.2; z-score, replicate A: -1.16; z-score, replicate B: -1.17; z-score, replicate C: -1.28; activity call: inactive

What did the screen give for ADCY3 (GeneID 109)?
mean z-score: -0.77; z-score, replicate A: -0.31; z-score, replicate B: -1.2; z-score, replicate C: -0.79; activity call: inactive

Which result is listed for COL6A1 (GeneID 1291)?
mean z-score: -0.49; z-score, replicate A: -0.46; z-score, replicate B: -0.5; z-score, replicate C: -0.51; activity call: inactive

With NOL3 (GeneID 8996), how do the results read?
mean z-score: 0.78; z-score, replicate A: 0.97; z-score, replicate B: 0.81; z-score, replicate C: 0.56; activity call: inactive

What is on record for HUWE1 (GeneID 10075)?
mean z-score: -2.11; z-score, replicate A: -2.36; z-score, replicate B: -2.17; z-score, replicate C: -1.81; activity call: inactive

How did the screen score REC8 (GeneID 9985)?
mean z-score: 0.87; z-score, replicate A: 0.78; z-score, replicate B: 0.86; z-score, replicate C: 0.98; activity call: inactive

How did the screen score QSOX1 (GeneID 5768) #1?
mean z-score: -0.52; z-score, replicate A: -0.65; z-score, replicate B: -0.49; z-score, replicate C: -0.43; activity call: inactive

How did the screen score QSOX1 (GeneID 5768) #2?
mean z-score: -0.01; z-score, replicate A: -0.56; z-score, replicate B: 0.34; z-score, replicate C: 0.2; activity call: inactive
